Measured values from several laboratories, pooled; numbers as filed in NIAID ChemDB.

All rows: toxicity to cultured cells; cells: MT-4; endpoint: CC50

CCn is the concentration with n% toxicity to the cells. Conditions beyond the fields shown may differ between rows.

smiles | value
COc1cccc2c1nc(-c1ccccc1F)n2CC1CCC1 | 11.2 µg/mL
COC(=O)c1[nH]c(=S)n(Nc2cccc(Cl)c2)c1C | 48.8 µM
CCc1c(Cc2ccccc2)nc(SCC(OC)OC)[nH]c1=O | <100 µM
C=C(C)[C@@H]1CC[C@]2(COC(=O)c3cccnc3)CC[C@]3(C)[C@H](CC[C@@H]4[C@@]5(C)CC[C@H](OC(=O)c6cccnc6)C(C)(C)[C@@H]5CC[C@]43C)[C@@H]12 | >20 µg/mL
[N-]=[N+]=N[C@H]1[C@@H](F)[C@H](n2ccc(N)nc2=O)O[C@@H]1CO | 243 µM
Nc1ncn([C@H]2CC[C@H](CO)O2)c(=O)n1 | >471 µM
Cc1cc2oc(=O)c(C(=O)/C=C/c3ccc(O)cc3)c(O)c2cc1Cl | 2.74 µg/mL
CC(C)c1c(Cc2cccc3ccccc23)n(COCc2ccccc2)c(=O)[nH]c1=O | 29.9 µM
Cc1ccc(C(C)C)c2oc(=O)c(C(=O)/C=C/c3cccc([N+](=O)[O-])c3)c(O)c12 | 13.1 µg/mL
CC(=O)c1ccc(C)cc1NC(C(N)=O)c1c(Cl)cccc1Cl | >10 µM
Cc1ccc(C(C)C)c2oc(=O)c(C(=O)/C=C/c3ccccc3[N+](=O)[O-])c(O)c12 | 2.81 µg/mL
Nc1ccn([C@H]2C=C[C@@H](CO)O2)c(=O)n1 | 15 µM
CCOCn1c(Cc2cccc3ccccc23)c(CC)c(=O)[nH]c1=O | 77.4 µM
CCc1c(Cc2ccccc2)n2c(nc1=O)SCC2CBr | >100 µM
O=c1ccn([C@@H]2O[C@H](CO)[C@@H](F)[C@H]2F)c(=O)[nH]1 | >500 µM
Nc1ccn([C@@H]2CC[C@H](CO)O2)c(=O)n1 | 473 µM
[O-][n+]1onc2ncnc(N3CC[N+]4(CC3)CC[N+]3(CCN(c5ncnc6no[n+]([O-])c56)CC3)CC4)c21 | >200 µM
CCc1c(Cc2cccc3ccccc23)nc(SCC2OCCO2)[nH]c1=O | <100 µM
Cc1cccc(Nn2cnc(C)c2-c2ccccc2)c1 | 27.04 µM
CCc1c(Cc2cc(C)cc(C)c2)nc2n(c1=O)C(OC)CS2 | <100 µM
O=C(O)CCCCCCCCCCCCC(=O)NC(CO[C@@H]1O[C@H](CO)[C@H](O)[C@H](O)[C@H]1O)C(=O)NCCOS(=O)(=O)O | >100 µM
Cc1cn([C@@H]2O[C@H](CO)C[C@@H]2F)c(=O)[nH]c1=O | >500 µM
CC(C)CCC[C@@H](C)[C@H]1CC[C@H]2[C@@H]3CC[C@H]4C[C@@H](CCC=C(c5cc(Cl)c(O)c(C(=O)O)c5)c5cc(Cl)c(O)c(C(=O)O)c5)CC[C@]4(C)[C@H]3CC[C@]12C | >125 µM
CNc1ccn([C@@H]2O[C@H](CO[Si](C)(C)C(C)(C)C)C3(OS(=O)(=O)C=C3N)[C@H]2O[Si](C)(C)C(C)(C)C)c(=O)n1 | 12 µM
O=c1[nH]c(=O)n([C@@H]2CO[C@H](CO)[C@@H](O)C2)cc1I | >100 µg/mL
Cc1cn([C@H]2C[C@H](N=[N+]=[N-])[C@@H](CO)O2)c(=O)[nH]c1=O | 45 µM
Cc1cn([C@H]2C[C@H](N=[N+]=[N-])[C@@H](CO)O2)c(=O)nc1N | >1000 µM
O=C(O)c1cn(-c2ccc(Cn3cncn3)cc2)c2c(OC(F)F)c(N3CC=C(c4ccccc4)CC3)c(F)cc2c1=O | 0.12 µM
CCCc1c(Cc2cccc3ccccc23)n(COC)c(=O)[nH]c1=O | 188 µM
CNc1nc(=O)n([C@@H]2O[C@H](CO[Si](C)(C)C(C)(C)C)C3(OS(=O)(=O)C=C3N)[C@H]2O[Si](C)(C)C(C)(C)C)cc1C | 26 µM
O=C(O)CCCCCCCCCCCCCNC(=O)C(CO[C@@H]1O[C@H](CO)[C@H](O)[C@H](O)[C@H]1O)NC(=O)CCCCCCCCCCC(=O)O | >100 µM
Cc1cccc(Nn2c(-c3ccccc3)c(C)[nH]c2=S)c1 | 88.25 µM
CC(C)CCC[C@@H](C)[C@H]1CC[C@H]2[C@@H]3CC=C4C[C@@H](O)CC[C@]4(C)[C@H]3CC[C@]12C | >25 µM
Cc1ccc(C(C)C)c2oc(=O)c(C(=O)/C=C/c3ccc(O)cc3)c(O)c12 | >8.95 µg/mL
Nc1ncn([C@@H]2CC[C@H](CO)O2)c(=O)n1 | >471 µM
Nc1nc(=O)n(CCN2C(=O)CSC2COc2ccccc2)cc1F | 100 µM
COc1cccc2c1nc(-c1ccccc1F)n2CCC#N | 66 µg/mL
Cc1[nH]c(=S)n(Nc2cccc(Cl)c2)c1C | 259 µM
Cc1cn([C@H]2OC(C)(CO)[C@H](O)[C@@H]2O)c(=O)[nH]c1=O | >100 µM
CCc1c(Cc2ccc3ccccc3c2)n(COC)c(=O)[nH]c1=O | 97.8 µM
O=C(O)CCCCCCCCCCCCCNC(=O)C(CO[C@@H]1O[C@H](CO)[C@H](O)[C@H](O)[C@H]1O)NC(=O)CCC(=O)O | >100 µM
Cc1cc2oc(=O)c(C(=O)/C=C/c3ccccc3[N+](=O)[O-])c(O)c2cc1Cl | 10.1 µg/mL
[N-]=[N+]=N[C@@H]1C[C@@H](CO)O[C@H]1n1cnc2c(N)ncnc21 | 625 µM
Cn1cc(C(=O)O)c(=O)c2cc(F)c(N3CC=C(c4ccccc4)CC3)c(C(F)(F)F)c21 | 0.53 µM
CCOC1CSc2nc(Cc3ccccc3)c(C(C)C)c(=O)n21 | <100 µM
CN1C(=O)C(c2cc(Cl)c(O)c(Cl)c2)NC(=O)[C@@H]2NC(=O)C(c3cc(Cl)c(O)c(Cl)c3)NC(=O)[C@H](NC(=O)C(=O)c3cc(Cl)c(O)c(Cl)c3)Cc3c[nH]c4c(cccc34)-c3cc2cc(c3O)Oc2ccc(cc2)CC1C(=O)NC(C(=O)O)c1ccc(O)cc1 | 530 µM
Nc1nc(=O)n([C@@H]2CC[C@H](CO)O2)cc1F | >436 µM
CCc1c(Cc2cc(C)cc(C)c2)nc2n(c1=O)C(OCCO)CS2 | >100 µM
CCc1cn([C@H]2C[C@H](N=[N+]=[N-])[C@@H](CO)O2)c(=O)[nH]c1=O | 418 µM
Cc1cn([C@@H]2O[C@H](CO[Si](C)(C)C(C)(C)C)[C@@]3(OS(=O)(=O)C=C3N)[C@H]2O[Si](C)(C)C(C)(C)C)c(=O)nc1N(C)C | 62 µM
COc1cccc(Nn2cnc(C)c2-c2ccccc2)c1 | 34.44 µM
c1ccc(CNCCc2ccc(CN3CCNCCCCCCCNCC3)cc2)nc1 | >100 µg/mL
Nc1nc2c(ncn2[C@@H]2O[C@H](CO)[C@@H](F)[C@H]2O)c(=O)[nH]1 | 526 µM
CCn1c(-c2ccccc2F)nc2c(OC)cccc21 | >19.2 µg/mL
Nc1nc2c(ncn2[C@@H]2CO[C@H](CO)[C@@H](O)C2)c(=O)[nH]1 | 21 µg/mL
CC(=O)NC1C(O)OC(CO)C(O)C1OC1OC(C(=O)[O-])C(OC2OC(CO)C(O)C(OC3OC(C(=O)[O-])C(O)C(O)C3O)C2NC(C)=O)C(O)C1O.[Na+].[Na+] | >125 µg/mL
COCn1c(Cc2cccc3ccccc23)c(C(C)C)c(=O)[nH]c1=O | 42.2 µM
C[C@]1(CO)O[C@@H](n2cnc3c(=O)[nH]c(N)nc32)[C@H](O)[C@@H]1O | >100 µM
CCOc1cc(/C=C2\SC(=O)N(CC(=O)c3ccccc3)C2=O)c(Br)cc1OCc1ccc(C(=O)O)cc1 | 76.82 µg/mL
CC(C)(C)[Si](C)(C)OC[C@H]1O[C@@H](n2c(C#N)cc(=O)[nH]c2=O)[C@H](O[Si](C)(C)C(C)(C)C)C12OS(=O)(=O)C=C2N | 11 µM
C[C@H](CCC=C(c1cc(Cl)c(O)c(C(=O)O)c1)c1cc(Cl)c(O)c(C(=O)O)c1)[C@H]1CC[C@H]2[C@@H]3CC[C@@H]4CCCC[C@]4(C)[C@H]3CC[C@]12C | 31.4 µM
Cc1cn([C@H]2C[C@H](N=[N+]=[N-])[C@@H](CO)O2)c(=O)[nH]c1=O | 11.5 µg/mL
CC(C)(C)[Si](C)(C)OC[C@H]1O[C@@H]2[C@H](O[Si](C)(C)C(C)(C)C)C13OS(=O)(=O)C=C3Nc1cc(=O)[nH]c(=O)n12 | 16 µM

A second listing of 6 rows from above:

smiles	value
Nc1ncn([C@@H]2CC[C@H](CO)O2)c(=O)n1	>471 µM
Cc1ccc(C(C)C)c2oc(=O)c(C(=O)/C=C/c3ccc(O)cc3)c(O)c12	>8.95 µg/mL
CCc1c(Cc2cccc3ccccc23)nc(SCC2OCCO2)[nH]c1=O	<100 µM
Cc1cn([C@@H]2O[C@H](CO)C[C@@H]2F)c(=O)[nH]c1=O	>500 µM
CCc1cn([C@H]2C[C@H](N=[N+]=[N-])[C@@H](CO)O2)c(=O)[nH]c1=O	418 µM
CCn1c(-c2ccccc2F)nc2c(OC)cccc21	>19.2 µg/mL